Measured values from several laboratories, pooled; numbers as filed in NIAID ChemDB.

Shared fields: whole-cell or culture tests; species: HIV-2; method: MTT; measure: EC50

Neighbouring rows are from separate reports.

compound,strain,cell line,value
Cc1cc(C)cc(C(=O)c2cccnc2Nc2ccc(/C(N)=N\O)cc2)c1,ROD,MT-4,>30.27 µM
CC(=O)Nc1cccc(C#Cc2cc(C)c(Oc3ccnc(Nc4ccc(C#N)cc4)n3)c(C)c2)c1,ROD,MT-4,>0.844 µM
Cc1cc(C)c(Nc2nc(NC3CCN(Cc4cccnc4)CC3)nc3nc[nH]c23)c(C)c1,ROD,MT-4,>132 µM
N#Cc1ccc(Nc2nc(Oc3c(Br)cc(Br)cc3Br)ncc2NC(=O)C(F)(F)F)cc1,ROD,MT-4,>7.01 µM
Cc1cc(C#N)cc(C)c1Oc1ccc([N+](=O)[O-])c(NC2CCN(Cc3ccncc3)CC2)n1,ROD,MT-4,>6.7 µM
CC(C)CN(C[C@@H](O)[C@H](Cc1ccccc1)NC(=O)O[C@H]1CCOC1)S(=O)(=O)c1ccc(N)cc1,ROD,MT-2,0.44 µM
Cc1cc(C)c(Oc2ncc(NC(=O)C(F)(F)F)c(Nc3ccc(C#N)cc3)n2)c(C)c1,ROD,MT-4,>243 µM
Cc1cc(C#Cc2cccc(N)c2)cc(C)c1Oc1ccnc(NC2CCN(Cc3ccc(C(N)=O)cc3)CC2)n1,ROD,MT-4,>0.198 µM
Cc1ccnc2c1NC(=O)c1cccnc1N2C1CC1,ROD,MT-4,>15 µM
CC(=O)O[C@@H]1[C@@H](C)[C@@]2(O)[C@@H](C=C(O)C[C@]3(O)C(=O)C(C)=C[C@@H]23)[C@@H]2C(C)(C)[C@]12O,ROD,MT-4,>307 µM
O=c1[nH]cnc2c1ncn2[C@H]1CC[C@@H](CO)O1,ROD,MT-4,19 µM
O=C(CSc1sc(Cl)nc1-c1ccc(Br)cc1Br)Nc1ccccc1F,ROD,MT-4,>33.18 µM
Cc1cc(Br)cc(C)c1Oc1ncc([N+](=O)[O-])c(Nc2ccc(C#N)cc2)n1,ROD,MT-4,≥202 µM
Cc1ccnc2c1NC(=O)c1cccnc1N2C1CC1,EHO,MT-4,>290 µM
Cc1cc(C)c(Nc2nc(NC3CCN(Cc4cccc(F)c4)CC3)nc3nc[nH]c23)c(C)c1,ROD,MT-4,>30.68 µM
C/C=C(/C)C(=O)O[C@@H]1[C@@H](C)[C@@]2(O)[C@@H](C=C(CO)C[C@]3(O)C(=O)C(C)=C[C@@H]23)[C@@H]2C(C)(C)[C@]12OC(C)=O,ROD,MT-4,0.003 µM
N#Cc1ccc(Nc2nc(Oc3c(Cl)cccc3Cl)ncc2NC(=O)C(F)(F)F)cc1,ROD,MT-4,>190 µM
CC(C)CN(C[C@@H](O)[C@H](Cc1ccccc1)NC(=O)O[C@H]1CO[C@H]2OCC[C@H]21)S(=O)(=O)c1ccc(N)cc1,ROD,MT-2,0.021 µM
Cc1cn([C@H]2C[C@@H](N=[N+]=[N-])[C@@H](CO)O2)c(=O)[nH]c1=O,ROD,MT-4,0.004 µM
Cc1cc(C#CC2CC2)cc(C)c1Oc1ccnc(Nc2ccc(C#N)cc2)n1,ROD,MT-4,>3.81 µM
Cc1cc(C#N)cc(C)c1Oc1ccc(N)c(NC2CCN(Cc3ccc(S(C)(=O)=O)cc3)CC2)n1,ROD,MT-4,>28 µM
Cc1cccc(C)c1OCC(=O)N[C@@H](Cc1ccccc1)[C@@H](O)C[C@H](Cc1ccccc1)NC(=O)[C@H](C(C)C)N1CCCNC1=O,ROD,MT-2,0.018 µM
Cc1ccccc1NC(=O)CSc1sc(N)nc1-c1ccc(Br)cc1Br,ROD,MT-4,>23.96 µM
COc1ccc(S(=O)(=O)N(CC(C)C)C[C@@H](O)[C@H](Cc2ccccc2)NC(=O)O[C@H]2CO[C@H]3O[C@@H]4OCC[C@@H]4[C@H]32)cc1,ROD,MT-2,0.0004 µM
COc1ncccc1C(=O)c1cc(C)cc(C)c1,ROD,MT-4,>7.34 µM
Cc1cc(C)c(Nc2nc(NC3CCN(Cc4ccc(C(N)=O)cc4)CC3)nc3nc[nH]c23)c(C)c1,ROD,MT-4,>23.85 µM
Cc1cc(C#Cc2cccc(N)c2)cc(C)c1Oc1ccnc(Nc2ccc(C#N)cc2)n1,ROD,MT-4,>5.005 µM
Cc1cc(C)c(CN2CCC(Nc3nc(Nc4c(C)cc(C)cc4C)c4[nH]cnc4n3)CC2)c(C)c1,ROD,MT-4,>4.8 µM
C1CNCCNCCCNCCNC1.[Cl-].[O]=[V+2],ROD,MT-4,>360 µM
Nc1ncnc2c1ncn2CCOCP(=O)(O)O,CBL-20,C8166,26 µM
O=C(CSc1sc(Cl)nc1-c1ccc(Br)cc1Br)Nc1ccccc1Br,ROD,MT-4,>8.25 µM
COc1ccc(S(=O)(=O)N(CC(C)C)C[C@@H](O)[C@H](Cc2ccccc2)NC(=O)O[C@H]2CO[C@@H]3O[C@H]4OCC[C@H]4[C@@H]32)cc1,ROD,MT-2,0.4 µM
Cc1cn([C@H]2C[C@@H](N=[N+]=[N-])[C@@H](CO)O2)c(=O)[nH]c1=O,ROD,MT-4,>0.006 µM
Cc1cc(C#Cc2ccc(N)cc2)cc(C)c1Oc1ccnc(Nc2ccc(C#N)cc2)n1,ROD,MT-4,>5.385 µM
COc1ccc(CN2CCC(Nc3nc(Nc4c(C)cc(C)cc4C)c4[nH]cnc4n3)CC2)cc1,ROD,MT-4,>15.1 µM
COC(=O)N[C@H](C(=O)N[C@@H](Cc1ccccc1)[C@@H](O)CN(Cc1ccc(-c2ccccn2)cc1)NC(=O)[C@@H](NC(=O)OC)C(C)(C)C)C(C)(C)C,ROD,MT-2,0.0077 µM
Cc1cc(C#Cc2ccc(C(=O)O)cc2)cc(C)c1Oc1ccnc(Nc2ccc(C#N)cc2)n1,ROD,MT-4,>25 µM
COc1ccc(S(=O)(=O)N(CC(C)C)C[C@@H](O)[C@H](Cc2ccc(F)cc2)NC(=O)O[C@H]2CCO[C@H]3OCC[C@H]32)cc1,ROD,MT-2,0.05 µM
Cc1ccnc2c1NC(=O)c1cccnc1N2C1CC1,ROD,MT-4,>15.02 µM
Cc1cc(C)cc(C(=O)c2cccnc2Nc2ccc(S(C)(=O)=O)cc2)c1,ROD,MT-4,>98.17 µM
C=C1[C@H](CO)[C@@H](O)C[C@@H]1n1cnc2c(=O)[nH]c(N)nc21,ROD,MT-4,>27.78 µM
C=S(=C)(C)c1ccc(CN2CCC(Nc3nc(Nc4c(C)cc(C)cc4C)c4[nH]cnc4n3)CC2)cc1,ROD,MT-4,>34.64 µM
Cc1cn([C@H]2C[C@H](N=[N+]=[N-])[C@@H](CO)O2)c(=O)[nH]c1=O,ROD,MT-4,0.006 µM
Cc1cc(C)c(Nc2nc(NC3CCN(Cc4ccccn4)CC3)nc3nc[nH]c23)c(C)c1,ROD,MT-4,>114 µM
Cc1cc(C)cc(C(=O)c2cccnc2Oc2ccccc2)c1,ROD,MT-4,>20.7 µM
Cc1cc(C)c(Nc2ccc([N+](=O)[O-])c(NC3CCN(Cc4ccc(S(C)(=O)=O)cc4)CC3)n2)c(C)c1,ROD,MT-4,>21 µM
Cc1cc(C)c(Nc2nc(NC3CCN(Cc4ccc(Br)cc4)CC3)nc3nc[nH]c23)c(C)c1,ROD,MT-4,>11.45 µM

3 of the rows above, restated:

compound,strain,cell line,value
Cc1cc(C#Cc2cccc(N)c2)cc(C)c1Oc1ccnc(Nc2ccc(C#N)cc2)n1,ROD,MT-4,>5.005 µM
Cc1cc(C#N)cc(C)c1Oc1ccc([N+](=O)[O-])c(NC2CCN(Cc3ccncc3)CC2)n1,ROD,MT-4,>6.7 µM
CC(C)CN(C[C@@H](O)[C@H](Cc1ccccc1)NC(=O)O[C@H]1CCOC1)S(=O)(=O)c1ccc(N)cc1,ROD,MT-2,0.44 µM

ECn is the concentration giving n% inhibition of infection, replication or growth.